Experimental findings from patent publication US20240059758A1, “Therapeutic antibodies with neutralizing activity against sars-cov-2 glycoprotein s” (CORAT THERAPEUTICS, published 2024) are described below.

The target in this experiment is BSA (UniProt P02769 25-607). Put plainly: RBD-binding quality as compared to STE90-C11; […].

B1: STE90-C11 (IgG) (antibody, V domains shown)
VH: QVQLVESGGGLVQPGGSLRLSCAASGLTVSSNYMSWVRQAPGKGLEWVSVIYSGGSTYYADSVKGRFTISRDDSKNTLYLQMNSLRAEDTAVYYCARDVADAFDIWGQGTMVTVSS
VL: DIVMTQSPSFLSASVGDRVTITCRASQGISSYLAWYQQKPGKAPKLLIYAASTLQSGVPSRFSGSGSGTEFTLTISSLQPEDFATYYCQQLNSYPPFTFGPGTKVDIK
B1: the binding result is “no binding”.

B2: hybrid antibody: VL STE90-C11 (SEQ ID No. 1309) with VH YU536-D04 (SEQ ID No. 364) (antibody, V domains shown)
VH: QVQLVQSGGGLVQPGGSLRLSCAASGLTVSSNYMSWVRQAPGKGLEWVSVIYSGGSTYYADSVKGRFIISRDNSKNTLYLQMNSLRAEDTAVYYCARDLVVMGLDVWGKGTLVTVSS
VL: B1 VL
For B2, the binding result is given as “no binding”.

B3: hybrid antibody: VL YU537-H11 (SEQ ID No. 402) with VH STE90-C11 (SEQ ID No. 1305) (antibody, V domains shown)
VH: B1 VH
VL: QSVLTQPPSVSAAPGQKVTISCSGSSSNIGNNYVSWYQQLPGTAPKLLIYDTNKRPSGIPDRFSGSKSGTSATLGITGLQTGDEADYYCATWDSSLSVGVFGGGTKLTVL
B3: the binding result is reported as “no binding”.

B4: hybrid antibody: VL YU536-D04 (SEQ ID No. 362) with VH STE90-C11 (SEQ ID No. 1305) (antibody, V domains shown)
VH: B1 VH
VL: DIQLTQSPSSLSASVGDRVTITCRASQGISSYLAWYQQKPGKAPKLLIYAASTLQSGVPSRFSGSGSGTDFTLTISSLQPEDFATYYCQQLNSYPITFGQGTKLEIK
On to B4, for which the binding result is “no binding”.

B5: hybrid antibody: VL STE90-C11 (SEQ ID No. 1309) with VH YU537-H11 (SEQ ID No. 404) (antibody, V domains shown)
VH: EVQLLESGGGLIQPGGSLRLSCAASGLTVSSNYMSWVRQAPGKGLEWVSVIYSGGSTYYADSVKGRFTISRDNSKNALYLQMNSLRAEDTAVYYCARGESGSPYGMDVWGQGTLVTVSS
VL: B1 VL
For the molecule B5, the binding result is “no binding”.

B6: hybrid antibody: VL YU536-D04 (SEQ ID No. 362) with VH YU537-H11 (SEQ ID No. 404) (antibody, V domains shown)
VH: B5 VH
VL: B4 VL
Take B6: the binding result is given as “no binding”.

B7: hybrid antibody: VL YU537-H11 (SEQ ID No. 402) with VH YU536-D04 (SEQ ID No. 364) (antibody, V domains shown)
VH: B2 VH
VL: B3 VL
For B7, the binding result is given as “no binding”.
